This series deals with cells infected with the dengue virus type-2 New Guinea C strain (DENV2 NGC). Briefly: Cell toxicity in dengue virus infected cells, optical microscope observation. As to conditions: 0.2 mM; treated for 2 days; FIG. 18.

Take `Cl.NCC(=O)CCC(=O)O` [5-ALA, 5-aminolevulinic acid hydrochloride]: the “cell toxicity (detachment of cells)” value is “did not show detachment”.

For the origin of these results see patent US20220193124A1, “Therapeutic Agent for Flavivirus Infection” (NEOPHARMA JAPAN CO., LTD., priority 2019, published 2022).
